Results on one compound are retold here after PMC4081560 (PLoS ONE, 2014).

Structures are written as SMILES.

Assay [1] deals with rK09/NA:Y275 virus neuraminidase (NA H275Y) (Influenza A virus, UniProt C5MQP8, H275Y). The assay is described as follows: fluorescent NI assay (MU-NANA substrate). The class given is biochemical, 2009 pandemic H1N1 virus (recombinant). The following applies: rK09/NA:Y275 vs K/09.
The target of assay [2] is K/2785 virus (A/Korea/2785/2009) neuraminidase (NA H275Y) (Influenza A virus, UniProt C5MQP8, H275Y). The assay is described as follows: fluorescent NI assay (MU-NANA substrate). The class given is biochemical, 2009 pandemic H1N1 oseltamivir-resistant variant. The following applies: K/2785 vs K/09.

As to `CCC(CC)O[C@@H]1C=C(C(=O)O)C[C@H](N)[C@H]1NC(C)=O` [Oseltamivir carboxylate], the “elevation of IC50 compared with K/09 virus” value in assay [1] was “more than 75 fold”. In addition, in assay [2], the “higher concentration needed compared with K/09 virus” value is recorded as “more than 20 fold”.
